# Measurements as given in publication PMC2789096.
# Experiments:
# [1] = tested on: NC(=O)C1=CN([C@@H]2O[C@H](COP(=O)(O)OP(=O)(O)OC[C@H]3O[C@@H](n4cnc5c(N)ncnc54)[C@H](OP(=O)(O)O)[C@@H]3O)[C@@H](O)[C@H]2O)C=CC1; assay: purified protein; conditions: pH 7.3; 25.0 °C
# [2] = tested on: O=C(O)C1=CC(=O)[C@@H](O)[C@H](O)C1; assay: purified protein; conditions: pH 7.3; 25.0 °C
substance,measurement,setting,value
(Mycobacterium tuberculosis H37Rv),Km,[1],11.0 ± 0.6 µM
same,Km,[2],29 ± 2 µM
